Results deposited as PubChem BioAssay AID624099 (ICCB-Longwood, 2012)
Purpose: 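Human genes that papillomavirus E2 requires to repress the HPV18 LCR promoter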 (primary screen). System: human C33A cervical carcinoma cells (HPV-negative) stably expressing BPV1 E2 and an HPV18 LCR luciferase reporter. Knock-down reagent: siRNA pool against human genes, 40 nM. Duration: 72 h. Read-out: 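HPV18 LCR reporter light per well, converted to plate-wise z-scores that exclude control wells, and averaged over triplicate plates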. Scale: mean z-score and z-score: higher = stronger reporter signal, weaker E2 silencing. Call rule: 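Hit if mean z-score reaches 2 and two or more of three replicate z-scores also reach 2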.
The whole screen tested about 21,000 reagents; below is an unselected part. 497 of them (2.4%) were called active. 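Higher z means weaker E2 silencing; only reporter increases were scored, and knock-downs that hurt cell survival may mask genuine repressor factors.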 A number with no mark means an inactive call.

mean z-score | z-score, replicate A | z-score, replicate B | z-score, replicate C | target
1.19 | 1.16 | 1.07 | 1.33 | PLA2G4D (phospholipase A2 group IVD)
-0.11 | -0.17 | -0.03 | -0.14 | ATP6V0E1 (ATPase H+ transporting V0 subunit e1)
1.15 | 1.19 | 0.64 | 1.63 | LOC284890 (retired record)
-1.15 | -1.03 | -1.06 | -1.36 | ELOF1 (elongation factor 1)
1.67 | 2.53 | 1.38 | 1.11 | SLC30A5
-0.32 | 0.21 | -0.22 | -0.96 | AVPR1A (arginine vasopressin receptor 1A)
0.34 | 0.29 | 0.21 | 0.52 | NREP (neuronal regeneration related protein)
0.32 | 0.29 | 0.68 | -0.01 | CYP4F8 (cytochrome P450 family 4 subfamily F member 8)
-0.11 | 0.13 | -0.31 | -0.13 | G2E3 (G2/M-phase specific E3 ubiquitin protein ligase)
-0.98 | -1.38 | -0.95 | -0.61 | LOC128629 (retired record)
-1.26 | -1.12 | -1.5 | -1.17 | RAI1 (retinoic acid induced 1)
1.35 | 1.11 | 1.79 | 1.15 | LINC00922 (long independently transcribed non-coding RNA 922)
-1.78 | -1.56 | -1.84 | -1.95 | USP36 (ubiquitin specific peptidase 36)
0.15 | -0.15 | 0.46 | 0.14 | LINC01020 (long independently transcribed non-coding RNA 1020)
0.69 | 0.45 | 0.99 | 0.62 | RBP5 (retinol binding protein 5)
0.62 | -0.07 | 0.82 | 1.1 | DSG4 (desmoglein 4)
-0.83 | -1.04 | -0.91 | -0.55 | PITPNC1 (phosphatidylinositol transfer protein cytoplasmic 1)
0.41 | 0.38 | 0.3 | 0.55 | MTLN (mitoregulin)
-0.07 | -0.08 | -0.18 | 0.05 | ZNF275 (zinc finger protein 275)
-1.47 | -1.73 | -1.31 | -1.38 | GIMAP2 (GTPase, IMAP family member 2)
-0.44 | -0.81 | -0.3 | -0.22 | BICC1 (BicC family RNA binding protein 1)
-0.48 | -0.74 | -0.29 | -0.4 | RNF141 (ring finger protein 141)
0.11 | 0.2 | -0.17 | 0.31 | BICDL2 (BICD family like cargo adaptor 2)
-0.6 | -0.53 | -0.9 | -0.36 | JAKMIP1 (janus kinase and microtubule interacting protein 1)
-0.35 | 0.4 | -0.32 | -1.14 | PLPPR1 (phospholipid phosphatase related 1)
0.09 | 0.12 | 0.16 | 0 | C1orf146 (chromosome 1 open reading frame 146)
-2.47 | -3.13 | -2.35 | -1.93 | XKR5 (XK related 5)
-1.24 | -1.4 | -1.05 | -1.27 | TPCN2 (two pore segment channel 2)
-0.37 | -0.23 | -0.43 | -0.46 | TRIM37 (tripartite motif containing 37)
0.38 | 0.4 | 0.11 | 0.62 | TMPRSS6 (transmembrane serine protease 6)
-1.22 | -1.31 | -1.37 | -0.99 | CD99L2 (CD99 molecule like 2)
-0.35 | -0.16 | -0.71 | -0.17 | NME4 (NME/NM23 nucleoside diphosphate kinase 4)
1.55 | 2 | 0.99 | 1.65 | FFAR3 (free fatty acid receptor 3)
-0.46 | -0.32 | -0.68 | -0.39 | RBBP6 (RB binding protein 6, ubiquitin ligase)
-1.13 | -1.06 | -1.11 | -1.22 | MAGEA4 (MAGE family member A4)
0.13 | 0.11 | 0.21 | 0.07 | HYAL4 (hyaluronidase 4)
-0.02 | -0.67 | 0.2 | 0.42 | SMARCC2 (SWI/SNF related BAF chromatin remodeling complex subunit C2)
0.67 | 0.5 | 0.45 | 1.06 | PPIAP59 (peptidylprolyl isomerase A pseudogene 59)
0.96 | 0.94 | 0.79 | 1.13 | CIC (capicua transcriptional repressor)
-0.89 | -0.87 | -0.65 | -1.16 | CIB3 (calcium and integrin binding family member 3)
-0.36 | -0.69 | -0.27 | -0.1 | OR4A47 (olfactory receptor family 4 subfamily A member 47)
0.1 | 0.07 | -0.01 | 0.23 | HYCC2 (hyccin PI4KA lipid kinase complex subunit 2)
0.78 | 0.53 | 1.17 | 0.65 | LOC387690 (retired record)
1.37 | 1.45 | 1.11 | 1.56 | LOC389409 (retired record)
0.83 | 1.23 | 0.85 | 0.41 | KIR2DS3
0.5 | 0.63 | 0.49 | 0.37 | PIDD1 (p53-induced death domain protein 1)
2.08 (active) | 1.8 | 2.05 | 2.4 | ROCK2 (Rho associated coiled-coil containing protein kinase 2)
1.08 | 0.94 | 1.01 | 1.3 | RPUSD4 (RNA pseudouridine synthase D4)
-1.27 | -1.71 | -1.31 | -0.78 | RPUSD2 (RNA pseudouridine synthase domain containing 2)
1.48 | 1.47 | 1.47 | 1.49 | NPHS1 (NPHS1 adhesion molecule, nephrin)
-0.24 | -0.01 | -0.06 | -0.65 | PRAMEF8 (PRAME family member 8)
0.14 | 0.38 | 0.27 | -0.23 | WDFY3-AS2 (WDFY3 antisense RNA 2)
-0.38 | -0.5 | -0.27 | -0.38 | ISM2 (isthmin 2)
-0.35 | -0.71 | -0.4 | 0.07 | MRPL9 (mitochondrial ribosomal protein L9)
-0.13 | -0.13 | -0.5 | 0.23 | TIPE1 (TNF alpha induced protein 8 like 1)
-0.16 | -0.48 | 0.25 | -0.25 | TMTC3 (transmembrane O-mannosyltransferase targeting cadherins 3)
0.26 | 0.21 | 0.24 | 0.33 | REP15 (RAB15 effector protein)

Sorted by “z-score, replicate B” (high to low): 2 of the entries above
mean z-score | z-score, replicate A | z-score, replicate B | z-score, replicate C | target
0.62 | -0.07 | 0.82 | 1.1 | DSG4 (desmoglein 4)
-0.83 | -1.04 | -0.91 | -0.55 | PITPNC1 (phosphatidylinositol transfer protein cytoplasmic 1)
